Data published in PubChem BioAssay AID504720 (Sanford-Burnham Center for Chemical Genomics, 2011).
The entries are a selection whose mix differs from that of the whole data set. Activity calls are given as the source filed them. Cut-off read from the data, not from the text of the source: active = activation above about 50%; inactive = the rest.

By UniProt entry, the sequences of proteins in these tests, tags left out. Where a name states a change or a piece, a line headed by the entry shows the natural chain unless it says otherwise.
UniProt P0AE70: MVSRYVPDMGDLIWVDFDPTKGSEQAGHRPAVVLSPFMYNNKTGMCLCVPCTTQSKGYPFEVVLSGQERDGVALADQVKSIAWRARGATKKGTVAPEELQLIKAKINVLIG

Target: Endoribonuclease toxin MazF (Escherichia coli (strain K12)) (UniProt P0AE70)
Assay: activators of E. coli MazEF toxin-antitoxin RNase, primary screen, biochemical, fluorescence, uHTS (AID 504720)
Conditions: FAM/BHQ RNA-DNA oligo cleavage fluorescence, 5 h, at 20 µM, active compounds read high

Compound | activation
c1ccc(-c2nn[nH]n2)c(-c2nn[nH]n2)c1 | inactive: 10.4%
CCNC(=S)/N=C(\N)N[N+](=O)[O-] | inactive: 3.13%
O=C(NC1CCS(=O)(=O)C1)NP(=S)(Oc1ccccc1)Oc1ccccc1 (configuration not stated) | inactive: 1.51%
O=P1(N(CCCl)CCCl)OCCC2CCCCN21 (configuration not stated) | inactive: -7.54%
O=[As](O)(c1ccccc1)c1ccc(O)cc1 | inactive: 3.78%
O=[N+]([O-])c1ccc(O)c(/C=N/Nc2ccc([N+](=O)[O-])cc2[N+](=O)[O-])c1 | inactive: 17.7%
O=[N+]([O-])c1ncn(CCn2cnc([N+](=O)[O-])n2)n1 | inactive: 7.01%
CC(=O)NC(SC(=S)N(C)C)C(Cl)(Cl)Cl (configuration not stated) | inactive: 4.11%
O=C(OC1CN2CCC1CC2)c1cccc(Cl)c1 (configuration not stated) | inactive: 4.48%
Nc1ccc([As](=O)(O)c2ccc([N+](=O)[O-])cc2)cc1 | inactive: 5.39%
C(Cc1nn[nH]n1)Cc1nn[nH]n1 | inactive: 1.23%
O=P(Nc1ccccn1)(c1ccc(Br)cc1)c1ccc(Br)cc1 | inactive: -0.906%
CN(C)C1(CNC(=O)c2ccc(Cl)c(S(N)(=O)=O)c2)CCCCC1 | inactive: 1.5%
COc1ccc(N)c([N+](=O)[O-])c1[N+](=O)[O-] | inactive: 14.4%
C[C@H]1OP(=O)(Oc2ccccc2)[C@H](O)[C@H](O)[C@H]1N=[N+]=[N-] (some centres not stated) | inactive: 5.81%
O=P(Nc1nc2ccccc2s1)(c1ccccc1)c1ccccc1 | inactive: 1.66%
CC(C)C(=O)NC(Sc1ccccc1)C(Cl)(Cl)Cl (configuration not stated) | inactive: 3.78%
O=P(Nc1nccs1)(c1ccccc1)c1ccccc1 | inactive: -0.421%
c1nnnn1CCn1cnnn1 | inactive: 0.353%
COc1ccccc1CNC(=O)COC(=O)C(O)(c1ccccc1)c1ccccc1 | inactive: 4.03%
CC(C)/C=N\N=C(\N)N[N+](=O)[O-] | inactive: -2.64%
CN(C(=O)Cc1ccc(Cl)c(Cl)c1)[C@@H]1CCCC[C@H]1N1CCCC1 | inactive: -4.86%

Compound | activation
CC1(CBr)Cn2c(nc3ccccc3c2=O)S1 (configuration not stated) | inactive: 6.21%
CCOP(=O)(NC(=NC(C)c1ccccc1)NC(C)c1ccccc1)OCC (configuration not stated) | inactive: 6.39%
O=P1(Nc2ccccn2)COc2ccccc2OC1 | inactive: 6.59%
CCC1=CC2Cc3nc4ccc(Cl)cc4c(N)c3C(C1)C2 (configuration not stated) | inactive: 19.5%
CN(CCCl)Cc1cc(Cl)c(NC2=NCCN2)c(Cl)c1 | inactive: 0.818%
CCOP(=O)(Nc1ccc(C)cn1)OCC | inactive: -2.27%
CC(C)(C)C(=O)NC(Sc1ncccn1)C(Cl)(Cl)Cl (configuration not stated) | inactive: -7.45%
O=P1(N(CCCl)CCCl)NCCC(C(F)(F)F)O1 (configuration not stated) | inactive: 4.3%
Clc1n[nH]nc1-c1nn[nH][15n]1 | inactive: -17.5%
O=P1(Nc2ncccn2)COc2ccccc2OC1 | inactive: 9.6%
Nc1cccc([As](=O)(O)c2ccccc2)c1 | inactive: 10.9%
O=P1(Nc2ccc(Br)cn2)COc2ccccc2OC1 | inactive: -4.83%
NS(=O)(=O)c1cccc(NC(=O)COC(=O)C(O)(c2ccccc2)c2ccccc2)c1 | inactive: 6.27%
O=[As](O)(c1cccs1)c1cccs1 | inactive: 5.03%
Cc1ccc(OCC(=O)OC2CN3CCC2CC3)cc1 (configuration not stated) | inactive: 2.08%
CC1CCC(C(C)C)C(OP(=O)(Nc2ccccn2)c2ccccc2)C1 (configuration not stated) | inactive: -29.8%
Cc1ccc(C(=O)OC2CN3CCC2CC3)cc1 (configuration not stated) | inactive: -2.29%
Cc1nn(-c2ccccc2)c2c1P(=O)(N1CCOCC1)N(C)C(c1ccccc1)=N2 (configuration not stated) | inactive: 7.35%
CN(C)C1(CNC(=O)c2ccc(S(C)(=O)=O)cc2)CCCCC1 | inactive: 1.29%
CCCC1OP(=O)(Nc2ccccc2)OCC1CC (configuration not stated) | inactive: 3.79%
O=C(/C=C/c1ccccc1)OC1CN2CCC1CC2 (configuration not stated) | inactive: -2.38%
NC(=O)Nc1ccc([As](=O)(O)O)cc1 | inactive: 0.934%

Compound | activation
CN(C(=O)Cc1ccccc1)[C@@H]1CC[C@]2(CCCO2)C[C@H]1N1CCCC1 | inactive: 5.02%
CCOP1(=S)c2c(C)nn(CCC#N)c2N=C(c2ccc(F)cc2)N1C (configuration not stated) | inactive: 2.33%
N#CCCN(C(=O)COC(=O)C(O)(c1ccccc1)c1ccccc1)c1ccc(F)cc1 | inactive: 1.6%
CN(C(=O)Cc1ccc(Cl)c(Cl)c1)[C@H]1CC[C@@]2(CCCO2)C[C@@H]1N1CCCC1 | inactive: 7.01%
CN(C)C(=O)c1cc([N+](=O)[O-])cc2c1-c1c(cc([N+](=O)[O-])cc1[N+](=O)[O-])C2=O | inactive: 3.95%
O=[N+]([O-])c1ccc2c(c1)nnn2O | inactive: -4.98%
O=P(Nc1nccs1)(c1ccccc1)c1nc2ccccc2s1 (configuration not stated) | inactive: -5.75%
O=P(Nc1nccs1)(Oc1ccccc1)Oc1ccccc1 | inactive: 3.85%
CCOP1(=S)c2c(C)nn(CCC#N)c2N=C(c2ccccc2F)N1C (configuration not stated) | inactive: 1.62%
CS(=O)(=O)c1cc([N+](=O)[O-])c2no[n+]([O-])c2c1 | inactive: 21.7%
Nc1ccccc1[As](=O)(O)c1ccccc1 | inactive: 6.67%
O=C(O)COc1ccc([As](=O)(O)O)cc1[N+](=O)[O-] | inactive: 5.51%
Nc1cccc2c([As](=O)(O)O)cccc12 | inactive: -959%
Cc1ccc(NCCc2c([N+](=O)[O-])cc([N+](=O)[O-])cc2[N+](=O)[O-])cc1 | inactive: -0.2%
CCCOP(=S)(Nc1nc(N)cc(=O)[nH]1)OCCC | inactive: 9.26%
CCOP(=O)(Nc1cccc2ccccc12)OCC | inactive: 5.65%
COc1cc(C2NCCC3(OCCO3)C2(C)C)cc(OC)c1OC (configuration not stated) | inactive: -3.57%
O=C(OC1CN2CCC1CC2)c1ccc(Cl)cc1 (configuration not stated) | inactive: 1.38%
CS(=O)(=O)c1ccc(Cl)c(NC(=O)COC(=O)C(O)(c2ccccc2)c2ccccc2)c1 | inactive: 1.23%
COc1cc(C(=O)NCC2(N3CCOCC3)CCCCC2)cc(Cl)c1OC(C)C | inactive: -4.65%
O=[As](O)(O)c1cccnc1 | inactive: -2.27%
O=[As](O)(c1cccc(O)c1)c1cccc(O)c1 | inactive: -1.78%

Compound | activation
Cc1cccc(OCC(=O)OC2CN3CCC2CC3)c1 (configuration not stated) | inactive: 0.084%
O=[N+]([O-])c1cc(Oc2ccc([N+](=O)[O-])cc2C(F)(F)F)cc([N+](=O)[O-])c1 | inactive: 7.22%
COc1ccc(N/C(=N/P(=O)(N2CCOCC2)N2CCOCC2)N2CCOCC2)cc1 | inactive: -0.304%
Cc1c2c(nc3ccccc13)SC(C(Cl)Cl)C2 (configuration not stated) | inactive: 7.2%
Cc1cc(=O)[nH]c(N[N+](=O)[O-])n1 | inactive: 7.32%
O=C(OC1CN2CCC1CC2)C12CC3CC(CC(C3)C1)C2 (configuration not stated) | inactive: -10.8%
O=P1(N(CCCl)CCCl)OCCCN1CCCl (configuration not stated) | inactive: -6.84%
O=P1(N(CCCl)CCCl)Nc2ccccc2N1 | inactive: -3.27%
COc1cc(I)ccc1[As](=O)(O)O | inactive: -2.32%
COc1ccc2nc(NP(=O)(c3ccccc3)c3ccccc3)sc2c1 | inactive: 1.66%
ClCCSc1nnc(-c2cccnc2)o1 | inactive: 0.852%
CC(C)c1ccc(OP(=O)(Nc2ccccn2)Oc2ccccc2F)cc1 (configuration not stated) | inactive: 9.54%
COC(=O)C1(C)COP(=O)(N2CCCCCC2)OC1 (configuration not stated) | inactive: 2.61%
O=[N+]([O-])c1cc([N+](=O)[O-])c(-c2ccn[nH]2)s1 | inactive: 1.15%
O=C(OC1CN2CCC1CC2)c1cccc2[nH]cnc12 (configuration not stated) | inactive: 7.51%
CCN(CC)C(=S)SC(NC=O)C(Cl)(Cl)Cl (configuration not stated) | inactive: -4.03%
CC(C)NC(=O)NP(=O)(Oc1ccccc1)Oc1ccccc1 | inactive: 11%
COc1cc(C(=O)NCC2(N3CCOCC3)CCCCC2)ccc1OCC(C)C | inactive: 15.5%
O=[N+]([O-])c1ccc(-c2cc([N+](=O)[O-])c(O)c([N+](=O)[O-])c2)cc1 | inactive: -13.4%
C[As](=O)(O)c1cccc(C(=O)O)c1 | inactive: 5.55%
O=[As](O)(c1ccc(O)cc1)c1ccccc1O | inactive: 5.56%
Cc1ccc(OP(=O)(Nc2ccc([N+](=O)[O-])cn2)Oc2ccc(C)cc2)cc1 | inactive: 4.56%

Compound | activation
Cc1ccc2nc3c(c(C)c2c1)CC(C(Cl)Cl)S3 (configuration not stated) | inactive: -5.61%
CCOC(=O)Nc1cccc([As](=O)(O)O)c1 | inactive: 6.74%
O=P(Nc1ccccn1)(c1cccc2ccccc12)c1cccc2ccccc12 | inactive: 16.9%
Cc1cc(SC(NC=O)C(Cl)(Cl)Cl)ncn1 (configuration not stated) | inactive: -3.21%
O=[N+]([O-])c1ccc(Nc2ccc(Oc3ccc([N+](=O)[O-])cc3[N+](=O)[O-])cc2)c([N+](=O)[O-])c1 | inactive: 1.43%
CCOC(=O)Nc1ccc([As](=O)(O)O)c(O)c1 | inactive: 5.25%
O=C(O)C(O)c1ccc(N(CCCl)CCCl)cc1 (configuration not stated) | inactive: -3.39%
CC1CCNP(=O)(N(CCCl)CCCl)O1 (configuration not stated) | inactive: 4.66%
COP(=O)(OC)N1CC1c1ccccc1 (configuration not stated) | inactive: 9.38%
Cc1cc(SC(NC(=O)c2ccccc2)C(Cl)(Cl)Cl)nc(C(C)C)n1 (configuration not stated) | inactive: 2.78%
CCCCOc1ccc(C(=O)NCC2(N3CCCCC3)CCCCC2)cc1OC | inactive: 2.6%
CSc1ccc(Nc2c([N+](=O)[O-])cc([N+](=O)[O-])cc2[N+](=O)[O-])cc1 | inactive: 11.9%
O=C(OC1CN2CCC1CC2)c1cccc([N+](=O)[O-])c1 (configuration not stated) | inactive: 7.45%
CCOC(=O)c1ccc(NC(=O)C(C)(CCl)SC)cc1 (configuration not stated) | inactive: 6.74%
CCC(C)N(CC(C)C)C(=S)SC(NC(C)=O)C(Cl)(Cl)Cl (configuration not stated) | inactive: 3.33%
COP1(=S)c2c(C)nn(CCC#N)c2N=C(c2ccc(F)cc2)N1C (configuration not stated) | inactive: 3.35%
O=C(O)C(=O)c1ccc(N(CCCl)CCCl)cc1 | inactive: -4.79%
O=C(Nc1ccncc1[N+](=O)[O-])c1ccc([N+](=O)[O-])cc1[N+](=O)[O-] | inactive: 3.98%
O=C(COc1ccccc1)OC1CN2CCC1CC2 (configuration not stated) | inactive: 3.82%
